Literature values as cited in article PMC4179598.

Target: His37 (UniProt position 37, IIGILHLILWI)
Experiment: NMR
Settings: Membrane-reconstituted M2TM tetramer

## Matrix protein 2 transmembrane peptide (M2TM, residues 22-46) (Influenza A virus)
  pKa: 8.2
